Data taken from article PMC9482650, “Quantitative fragmentomics allow affinity mapping of interactomes” (Nature Communications, 2022).

Target: MERS E PBM (MERS coronavirus)
Test: holdup assay

Substance: His6-MBP-SNX27 PDZ (from UniProt Q96L92 43-136) (domain or fragment)
- pKd (pKd (-log10 of Kd in M)): 4.56
